Results deposited as PubChem BioAssay AID624099 (ICCB-Longwood, 2012).
Shown is a random part of about 21,000 reagents tested. 497 of all reagents (2.4%) were called active. 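Higher z means weaker E2 silencing; only reporter increases were scored, and knock-downs that hurt cell survival may mask genuine repressor factors.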 Reagent sequences are not shown.

Assay: 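Host factors E2 relies on to silence an HPV18 LCR reporter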 (primary screen)
Cell system: human C33A cervical carcinoma cells (HPV-negative) stably expressing BPV1 E2 and an HPV18 LCR luciferase reporter
Reagents: siRNA pool against human genes, 40 nM
Time to read-out: 72 h
Measurement: 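HPV18 LCR reporter light per well, converted to plate-wise z-scores that exclude control wells, and averaged over triplicate plates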
Scale: mean z-score and z-score: higher = stronger reporter signal, weaker E2 silencing
Active means: 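Hit if mean z-score reaches 2 and two or more of three replicate z-scores also reach 2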

Gene | mean z-score | z-score, replicate A | z-score, replicate B | z-score, replicate C | call
ADGRG4 | -1.03 | -1.15 | -1.03 | -0.91 | inactive
PTGFRN | 0.31 | 0.19 | 0.46 | 0.29 | inactive
LOC392584 (retired record) | -1.71 | -2.28 | -1.17 | -1.67 | inactive
CCZ1 | 1.72 | 1.49 | 1.91 | 1.75 | inactive
GMPS | 0.56 | 0.71 | 0.41 | 0.55 | inactive
LINS1 | -0.19 | -0.11 | -0.05 | -0.41 | inactive
OR2B6 | -0.59 | -0.48 | -0.65 | -0.64 | inactive
TMEM258 | 0.22 | 0.24 | 0.4 | 0.03 | inactive
CCDC12 | 0.3 | 0.11 | 0.48 | 0.3 | inactive
FOXA2 | 2.97 | 3.22 | 2.83 | 2.87 | active
WDR31 | -0.92 | -1.07 | -0.92 | -0.79 | inactive
SLAMF6 | -0.82 | -0.93 | -0.72 | -0.8 | inactive
GHRH | -0.54 | -0.54 | -0.56 | -0.53 | inactive
ASB9 | 1.34 | 0.9 | 1.64 | 1.48 | inactive
SLC9A3 | 0.28 | 0.2 | 0.49 | 0.15 | inactive
CCL17 | -3.04 | -3.13 | -3.01 | -2.98 | inactive
LOC388943 (retired record) | 0.1 | 0.14 | 0.06 | 0.09 | inactive
ANKRD19P | -0.81 | -0.8 | -1.07 | -0.57 | inactive
ELAVL4 | -0.84 | -1.04 | -0.67 | -0.8 | inactive
MIR503HG | 2.18 | 2.09 | 2.25 | 2.21 | active
ARL10 | 0.11 | 0.09 | 0.21 | 0.02 | inactive
RFC4 | -0.21 | 0.12 | -0.74 | 0 | inactive
YARS2 | -0.27 | -0.22 | -0.23 | -0.37 | inactive
WBP2P1 | 0.42 | 0.73 | 0.46 | 0.07 | inactive
SRI | -0.46 | -0.18 | -0.54 | -0.66 | inactive
SLC17A1 | 0.31 | 0.76 | 0.1 | 0.06 | inactive
ZFP41 | -0.43 | -0.35 | -0.56 | -0.39 | inactive
IL17D | 0.7 | 0.81 | 0.79 | 0.49 | inactive
SSTR2 | 1.51 | 1.77 | 1.29 | 1.48 | inactive
PCDH12 | 0.21 | 0.07 | -0.05 | 0.62 | inactive
SORL1 | -2.36 | -2.37 | -2.24 | -2.45 | inactive
ANXA2P3 | 0.03 | -0.01 | 0.42 | -0.33 | inactive
TBC1D4 | 0.84 | 0.91 | 0.8 | 0.81 | inactive
PAIP1 | -0.44 | -0.47 | -0.5 | -0.35 | inactive
ZNF654 | -0.32 | -0.61 | -0.75 | 0.41 | inactive
PCDHAC1 | 0.84 | 0.95 | 0.48 | 1.09 | inactive
GRB2 | 0.11 | 0.25 | 0.07 | 0.02 | inactive
MCUB | 0.22 | 0.28 | 0.46 | -0.08 | inactive
ATPAF1 | 1.33 | 1.2 | 1.73 | 1.06 | inactive
